System: PIGA-null TF-1 cells
Test: Modified Ham test (WST-1 cell viability after serum exposure)

B1: eculizumab (antibody, chains of the INN, looked up)
heavy: QVQLVQSGAEVKKPGASVKVSCKASGYIFSNYWIQWVRQAPGQGLEWMGEILPGSGSTEYTENFKDRVTMTRDTSTSTVYMELSSLRSEDTAVYYCARYFFGSSPNWYFDVWGQGTLVTVSSASTKGPSVFPLAPCSRSTSESTAALGCLVKDYFPEPVTVSWNSGALTSGVHTFPAVLQSSGLYSLSSVVTVPSSNFGTQTYTCNVDHKPSNTKVDKTVERKCCVECPPCPAPPVAGPSVFLFPPKPKDTLMISRTPEVTCVVVDVSQEDPEVQFNWYVDGVEVHNAKTKPREEQFNSTYRVVSVLTVLHQDWLNGKEYKCKVSNKGLPSSIEKTISKAKGQPREPQVYTLPPSQEEMTKNQVSLTCLVKGFYPSDIAVEWESNGQPENNYKTTPPVLDSDGSFFLYSRLTVDKSRWQEGNVFSCSVMHEALHNHYTQKSLSLSLG
light: DIQMTQSPSSLSASVGDRVTITCGASENIYGALNWYQQKPGKAPKLLIYGATNLADGVPSRFSGSGSGTDFTLTISSLQPEDFATYYCQNVLNTPLTFGQGTKVEIKRTVAAPSVFIFPPSDEQLKSGTASVVCLLNNFYPREAKVQWKVDNALQSGNSQESVTEQDSKDSTYSLSSTLTLSKADYEKHKVYACEVTHQGLSSPVTKSFNRGEC
modifications: in PNH patient serum
In the case of B1, the “modified Ham test result of acute Shiga-toxin associated HUS serum mixed with eculizumab containing serum” value is reported as “normalization of the modified Ham test results in all ratios”.
